Results on one molecule are retold here after publication PMC6494957 (Frontiers in Microbiology, 2019).

The data set has as its system all the cell lines tested (HaCaT, HEK 293, MDCK). The procedure:
Cells were maintained in Dulbecco’s modified Eagle’s medium (DMEM) with 10% fetal bovine serum (FBS) and 1% PenStrep (100 U/mL Penicillin and 100 μg/mL Streptomycin) at 37°C with 5% CO2. Cells were serially passaged at ∼80% confluence ∼ every 4 days. Assays were performed in duplicate in 96 well plates seeded with ∼25,000 cells per well. […] Briefly, the antimicrobials were prepared by performing a twofold serial dilution at 100× of tested concentration in DMSO. Subsequently, a 1 μl aliquot of each concentration was transferred to a sterile 96-well plate containing fresh DMEM with either 10% FBS. After mixing four times, the media aliquots with different concentrations of antimicrobial were transferred to each well of the 96-well plate seeded with cells, using wells containing 1–2% DMSO only as control. To determine the effect of FBS on the cytotoxicity of each compound, DMEM with 40% FBS containing different concentrations of antimicrobial was prepared as described above. After 24 h of exposure, WST-1 reagent (Cell Proliferation Assay reagent, Roche) at a concentration of 10% was added to each well. Absorbance at A450 nm on a Multiskan Ascent 354 Spectrophotometer (Labsystems) was measured after 1 h of incubation. The IC50 value was determined for each compound against each cell line via non-linear regression (three parameters) using GraphPad Prism v6 software.

Where two headings read alike, the source gives them in different places.

With `N=C(N/N=C/c1ccc(Cl)cc1)N/N=C/c1ccc(Cl)cc1` [ROB, robenidine], the IC50/MIC ratio result is “sixfold” (robenidine in the presence of EDTA, Gram-negative pathogens); “threefold” (robenidine in the presence of EDTA, Gram-positive pathogens); 2- to 24 fold (robenidine in the presence of PMBN, Gram-negative pathogens).
